Results of unrelated studies side by side (data: NIAID ChemDB).

Common to all: host cell toxicity; cell line: JM; endpoint: CC50

Lines come from different laboratories, so protocols vary. CCn: concentration that lowers growth or viability of the cells by n%. An empty or dashed field is not shown.

structure | read by | value
COc1ccc(Cc2nccc3cc(OC)c(OC)cc23)cc1OC | MTT | 2 µg/mL
Cc1cn([C@H]2C[C@H](N=[N+]=[N-])[C@@H](COP(=O)(Oc3ccc([N+](=O)[O-])cc3)Oc3ccc([N+](=O)[O-])cc3)O2)c(=O)[nH]c1=O | - | 20 µM
O=C(O)C1=CC(=C(c2ccc(O)c(C(=O)O)c2)c2ccc(O)c(C(=O)O)c2)C=CC1=O | MTT | 1000 µg/mL
COC(=O)c1ccc(COP(=O)(O)OC[C@H]2O[C@@H](n3cc(C)c(=O)[nH]c3=O)C[C@@H]2N=[N+]=[N-])cc1 | MTT | 100 µM
Cc1cn([C@H]2C[C@H](N=[N+]=[N-])[C@@H](COP(=O)(OCC(Cl)(Cl)Cl)Oc3ccccc3)O2)c(=O)[nH]c1=O | - | 50 µM
Cc1cn([C@H]2C[C@H](N=[N+]=[N-])[C@@H](COP(=O)(OCc3ccc(C(=O)OC(C)(C)C)cc3)OCc3ccc(C(=O)OC(C)(C)C)cc3)O2)c(=O)[nH]c1=O | MTT | 150 µM
CCCC(=O)O[C@H]1CN2CC[C@H](O)[C@@H]2[C@@H](O)[C@@H]1O | - | 965 µM
COC(=O)C(C)NP(=O)(OC[C@H]1O[C@@H](n2cc(C)c(=O)[nH]c2=O)C[C@@H]1N=[N+]=[N-])Oc1ccc([N+](=O)[O-])cc1 | - | 150 µM
Nc1ncc2ncn([C@H]3CC[C@@H](CO)O3)c2n1 | - | >1000 µM
Cc1cn([C@H]2C[C@H](N=[N+]=[N-])[C@@H](CO)O2)c(=O)[nH]c1=O | - | >1000 µM
C[C@H](CCC(=O)NCCS(=O)(=O)O)[C@H]1CC[C@H]2[C@@H]3CC[C@@H]4C[C@H](O)CC[C@]4(C)C3CC[C@]12C | MTT | >50 µg/mL
Cc1cn([C@H]2C[C@H](N=[N+]=[N-])[C@@H](COP(=O)(Oc3ccc(C#N)cc3)Oc3ccc(C#N)cc3)O2)c(=O)[nH]c1=O | - | 400 µM
CCOP(=O)(N[C@@H](CC(C)C)C(=O)OC)OC[C@H]1O[C@@H](n2cc(C)c(=O)[nH]c2=O)C[C@@H]1N=[N+]=[N-] | MTT | 500 µg/mL
Nc1ccn([C@H]2CC[C@@H](CO)O2)c(=O)n1 | - | 0.5 µM
CCOP(=O)(N[C@@H](C)C(=O)OC)OC[C@H]1O[C@@H](n2cc(C)c(=O)[nH]c2=O)C[C@@H]1N=[N+]=[N-] | MTT | 1000 µg/mL
CCOC(=O)c1ccc(COP(=O)(O)OC[C@H]2O[C@@H](n3cc(C)c(=O)[nH]c3=O)C[C@@H]2N=[N+]=[N-])cc1 | MTT | 19 µM
Cc1cn([C@H]2C[C@H](N=[N+]=[N-])[C@@H](CO)O2)c(=O)[nH]c1=O | - | >1039 µM
CC(C)(C)OC(=O)[C@@H]1CCCN1C[C@H](O)[C@H](Cc1ccccc1)NC(=O)[C@H](CC(N)=O)NC(=O)OCc1ccccc1 | MTT | 500 µg/mL

A second listing of 2 rows from above:

structure,read by,value
COC(=O)C(C)NP(=O)(OC[C@H]1O[C@@H](n2cc(C)c(=O)[nH]c2=O)C[C@@H]1N=[N+]=[N-])Oc1ccc([N+](=O)[O-])cc1,-,150 µM
Cc1cn([C@H]2C[C@H](N=[N+]=[N-])[C@@H](COP(=O)(OCC(Cl)(Cl)Cl)Oc3ccccc3)O2)c(=O)[nH]c1=O,-,50 µM